Test system: PrP^Sc in dividing ScN2a-cl3 cells
Type: cell-based, mouse
Settings: cell viability potency over ELISA potency

SMILES	Calcein/ELISA Ratio
CC(=O)c1ccc2c(c1)N(CCCN(C)C)c1ccccc1S2 [Acepromazine]	>1.44
Nc1c(/N=N/c2ccc(-c3ccc(/N=N/c4cc(S(=O)(=O)O)c5ccccc5c4N)cc3)cc2)cc(S(=O)(=O)O)c2ccccc12 [Congo Red]	>22
CN1C[C@H](C(=O)N[C@]2(C)O[C@@]3(O)[C@@H]4CCCN4C(=O)[C@H](Cc4ccccc4)N3C2=O)C[C@@H]2c3cccc4[nH]cc(c34)C[C@H]21 [Dihydroergotamine]	>1.55
CCOc1ccc(/N=N/c2ccc(N)cc2N)cc1 [Ethoxazine]	>2.1
COc1ccc2cc1Oc1ccc(cc1)C[C@H]1c3cc(c(OC)cc3CCN1C)Oc1c(OC)c(OC)cc3c1[C@H](C2)N(C)CC3 [Tetrandine]	2.33
